ChEMBL document CHEMBL1764973 (J Med Chem, 2011)

The chains behind the UniProt entries cited, without tags or fusion partners. Where a name states a change or a piece, a line headed by the entry shows the natural chain unless it says otherwise.
UniProt Q9H3N8: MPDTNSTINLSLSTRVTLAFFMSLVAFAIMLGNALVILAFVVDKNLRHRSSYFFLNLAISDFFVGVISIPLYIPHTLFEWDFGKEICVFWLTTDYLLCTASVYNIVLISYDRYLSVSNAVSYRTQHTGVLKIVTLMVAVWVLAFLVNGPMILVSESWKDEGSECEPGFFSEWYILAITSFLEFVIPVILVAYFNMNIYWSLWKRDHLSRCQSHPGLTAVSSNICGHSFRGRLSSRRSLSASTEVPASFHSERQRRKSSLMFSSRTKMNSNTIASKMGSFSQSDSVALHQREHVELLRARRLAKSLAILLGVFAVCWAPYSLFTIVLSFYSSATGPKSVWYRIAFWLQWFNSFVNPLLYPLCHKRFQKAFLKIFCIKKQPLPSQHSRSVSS

Biological target: Histamine H4 receptor (Homo sapiens) (UniProt Q9H3N8)
Settings: 10 uM

Question: With `COc1ccc(-c2c(C)c(C(=O)NC3(C#N)CCOCC3)nn2-c2ccccc2Br)cc1` as the compound, how does the inhibition read?
Answer: The inhibition was under 50%.
